Experimental data as given in US9289411B2, “Anti-HCV agent” (NATIONAL UNIVERSITY CORPORATION OKAYAMA UNIVERSITY, priority 2011, dated 2016).
Several values for one entry are separate records, joined by “and”; a condition that tells them apart may be missing. Identical values can stand only once.

Assays:
[1] = system: HCV-RNA replication in ORL8 cells; experiment: Effect of antioxidant vitamin E on anti-HCV activity in ORL8 cells (luciferase activity); type: cell-based, HCV genotype 1b; conditions: vitamin E 10 μM, N-89, N-251 0.5 μM, artemisinin 100 μM, CsA 0.4 μg/mL, IFN-α 1 IU/mL
Procedure: The effect of addition of vitamin E on the anti-HCV activity of N-89 was examined using ORL8 cells. An experimental scale and schedule are the same as those in Example 1.
N-89 and vitamin E were simultaneously added so that the concentrations of N-89 and vitamin E were set to 0.5 μM and 10 μM, respectively. The luciferase activity was measured 72 hours after the culture.
The effect of addition of vitamin E on the anti-HCV activity of N-251 was examined using ORL8 cells. An experimental scale and schedule are the same as those in Example 1.
N-251 and vitamin E were simultaneously added so that the concentrations of N-251 and vitamin E were set to 0.5 μM and 10 μM, respectively. The luciferase activity was measured 72 hours after the culture.
The effect of addition of vitamin E on the anti-HCV activity of artemisinin was examined using ORL8 cells. An experimental scale and schedule are the same as those in Example 1.
Artemisinin and vitamin E were simultaneously added so that the concentrations of artemisinin and vitamin E were set to 100 μM and 10 μM, respectively. The luciferase activity was measured 72 hours after the culture.

[2] = system: HCV-RNA replication in 1B-4RL cells (HCV-1B-4 strain, Li23-derived); type: cell-based, HCV genotype 1b; conditions: 1B-4RL vs ORL8
Procedure: For N-251, the results at concentrations of up to 1.3 μM are shown.

Row | Molecule | luciferase activity with vitamin E divided by luciferase activity without vitamin E [1] | EC50 fold higher in 1B-4RL cells than in ORL8 cells [2]
1 | vitamin E [reference compound] | 2.2 and 1.9 and 2.9 | –
2 | OCCCCCCC1COOC2(CCCCCCCCCCC2)OOC1 [N-251, 6-(1,2,6,7-tetraoxaspiro[7,11]nonadec-4-yl)] | 6.6 | ~2.3 fold
3 | C[C@@H]1CC[C@H]2[C@@H](C)C(=O)O[C@@H]3O[C@@]4(C)CC[C@@H]1[C@]32OO4 [artemisinin, reference compound] | 2.3 | –
4 | IFN-α | 4.4 | –
5 | C1CCCCCC2(CCCCC1)OOCCCOO2 [N-89, 1,2,6,7-tetraoxaspiro[7,11]nonadecane] | 8.9 | about 1.3 fold
